Patent publication US20160281050A1, “METHODS FOR TREATING A CULTURE OF HAEMATOCOCCUS PLUVIALIS FOR CONTAMINATION USING SALT AND HYDROGEN PEROXIDE” (HELIAE DEVELOPMENT LLC, priority 2015, published 2016)
Like-named read-outs stand apart in the source and are kept apart here.

System: Haematococcus pluvialis (Strain 2)
Conditions: for % Carotenoids (UV): 0.0105 mL/L every 6 hours

Substance: hydrogen peroxide [H2O2]
- Cell Dry Weight (0.0105 mL/L H2O2, MP1, day 5): 0.216 g/L
- Cell Dry Weight (0.0105 mL/L H2O2, MP1, day 6): 0.283 g/L
- Cell Dry Weight (0.0105 mL/L H2O2, MP1, day 7): 0.321 g/L
- Cell Dry Weight (0.0105 mL/L H2O2, MP1, day 8): 0.371 g/L
- Cell Dry Weight (0.0105 mL/L H2O2, MP1, day 9): 0.349 g/L
- Cell Dry Weight (0.0105 mL/L H2O2, MP1, day 10): 0.370 g/L
- Cell Dry Weight (0.0105 mL/L H2O2, MP1, day 11): 0.353 g/L
- Cell Dry Weight (0.0105 mL/L H2O2, MP1, day 12): 0.357 g/L
- Cell Dry Weight (0.0105 mL/L H2O2, MP1, day 13): 0.364 g/L
- Cell Dry Weight (0.0105 mL/L H2O2, MP1, day 14): 0.357 g/L
- Cell Dry Weight (0.0105 mL/L H2O2, MP3, day 5): 0.190 g/L
- Cell Dry Weight (0.0105 mL/L H2O2, MP3, day 6): 0.201 g/L
- Cell Dry Weight (0.0105 mL/L H2O2, MP3, day 7): 0.311 g/L
- Cell Dry Weight (0.0105 mL/L H2O2, MP3, day 8): 0.412 g/L
- Cell Dry Weight (0.0105 mL/L H2O2, MP3, day 9): 0.353 g/L
- Cell Dry Weight (0.0105 mL/L H2O2, MP3, day 10): 0.343 g/L
- Cell Dry Weight (0.0105 mL/L H2O2, MP3, day 11): 0.349 g/L
- Cell Dry Weight (0.0105 mL/L H2O2, MP3, day 12): 0.375 g/L
- Cell Dry Weight (0.0105 mL/L H2O2, MP3, day 13): 0.390 g/L
- Cell Dry Weight (0.0105 mL/L H2O2, MP3, day 14): 0.427 g/L
- % Carotenoids (UV) (MP1, day 8): 3.71%
- % Carotenoids (UV) (MP1, day 9): 4.03%
- % Carotenoids (UV) (MP1, day 10): 4.44%
- % Carotenoids (UV) (MP1, day 11): 4.33%
- % Carotenoids (UV) (MP1, day 12): 3.95%
- % Carotenoids (UV) (MP3, day 8): 3.77%
- % Carotenoids (UV) (MP3, day 9): 4.19%
- % Carotenoids (UV) (MP3, day 10): 4.55%
- % Carotenoids (UV) (MP3, day 11): 3.74%
- % Carotenoids (UV) (MP3, day 12): 4.47%
